Measured values from several laboratories, pooled; numbers as filed in NIAID ChemDB.

All rows: target-level tests; organism: HIV-1; protein: Protease; method: substrate cleavage; read-out: Ki

Rows are shuffled and stem from different studies. An empty or dashed field is not shown.

smiles,strain or isolate,result
CCC(C1=C(O)C2CCCCCCC2OC1=O)c1cccc(NS(=O)(=O)c2ccc(C#N)cn2)c1,-,0.00008 µM
O=[P@]12O[C@@H]([C@@H](O)[C@@H](Cc3ccccc3)N1CC1CC1)[C@@H](Cc1ccccc1)N2CC1CC1,-,0.23 µM
O=c1oc2c(c(O)c1C(c1cccc(NC(=S)Cc3ccccc3)c1)C1CC1)CCCCCC2,-,0.32 µM
CCC(C1=C(O)C2CCCC2OC1=O)c1ccccc1,-,>2 µM
CCCC[C@@H](CN[C@@H](CCCC)C(=O)N[C@@H](CCC(N)=O)C(=O)N[C@@H](CCCN=C(N)N)C(N)=O)NC(=O)[C@@H](NC(=O)[C@@H](NC(C)=O)[C@@H](C)O)[C@@H](C)CC,-,0.81 µM
CCC(Cc1ccccc1)c1cc(O)c(C(CC)c2ccccc2)c(=O)o1,-,0.04 µM
CNC(=O)[C@@H](NC(=O)[C@@H](C[C@H](O)[C@@H](OCc1ccccc1)C(=O)N[C@H](C(=O)NC)C(C)C)OCc1ccccc1)C(C)C,-,0.53 µM
O=[P@]12O[C@@H]([C@@H](O)[C@@H](Cc3ccccc3)N1Cc1ccccc1)[C@@H](Cc1ccccc1)N2Cc1ccccc1,-,0.044 µM
COC(=O)N[C@H](C(=O)N[C@@H](Cc1ccccc1)[C@@H](O)CN(Cc1ccc(-c2ccccn2)cc1)NC(=O)[C@@H](NC(=O)OC)C(C)(C)C)C(C)(C)C,RF,0.00266 µM
CCC(C1=C(O)C2CCCC2OC1=O)c1cccc(NS(=O)(=O)c2ccc(C#N)cn2)c1,-,0.00015 µM
CC(C)(C)OC(=O)N[C@@H](Cc1ccccc1)[C@H](O)CNC[C@@H](O)[C@H](Cc1ccc(OCC(=O)N2CCOCC2)cc1)NC(=O)OC(C)(C)C,-,0.034 µM
Cc1cnc(C(=O)N[C@H](C(=O)N[C@@H](Cc2ccccc2)[C@H](O)[C@H](O)[C@H](Cc2ccccc2)NC(=O)[C@@H](NC(=O)c2cnc(C)cn2)C(C)C)C(C)C)cn1,-,0.0007 µM
CC(C)[C@H](NC(=O)OCc1ccccc1)C(=O)N[C@@H](Cc1ccccc1)[C@@H](O)[C@@H](NCc1ccccc1)C(=O)N[C@H](C(=O)NCc1nc2ccccc2[nH]1)C(C)C,-,0.0034 µM
CCCCN1[C@H](Cc2ccccc2)[C@H](O)[C@@H]2O[P@]1(=O)N(CCCC)[C@@H]2Cc1ccccc1,-,0.35 µM

Repeating the final 2 entries:

smiles	strain or isolate	result
CC(C)[C@H](NC(=O)OCc1ccccc1)C(=O)N[C@@H](Cc1ccccc1)[C@@H](O)[C@@H](NCc1ccccc1)C(=O)N[C@H](C(=O)NCc1nc2ccccc2[nH]1)C(C)C	-	0.0034 µM
CCCCN1[C@H](Cc2ccccc2)[C@H](O)[C@@H]2O[P@]1(=O)N(CCCC)[C@@H]2Cc1ccccc1	-	0.35 µM